Anti-infective test results gathered from many reports (values: NIAID ChemDB through PubChem).

Shared fields: tests in culture; organism: Mycobacterium tuberculosis

Neighbouring rows are from separate reports. Inhibition is in % at the dose shown (toxicity tests: loss of growth or viability). An empty or dashed field is not shown. MIC bound: limit read from a one-dose screen. ECn is the concentration giving n% inhibition of infection, replication or growth. MIC50, MIC90 and the like: level of inhibition, or share of isolates inhibited.

structure | read by | dose | read-out | strain | value
CCn1cc(C(=O)O)c(=O)c2cc(F)c(N3CCN(C/C(=N/OC)c4cccs4)CC3)cc21 | - | - | MIC | H37Rv | >6.25 µg/mL
CCOC(=O)C1=C(C)N(c2ccccc2Cl)C(C)=C(C(=O)OCC)C1c1ccc(-c2ccc(F)c(Cl)c2)o1 | BACTEC / radiometric | 6.25 µg/mL | inhibition | H37Rv | 23%
O=C(N/N=C1\C(=O)N(c2nccs2)C(=O)C(=O)C1c1nc2ccccc2s1)c1ccccc1O | BACTEC | 12.5 µg/mL | inhibition | H37Rv | -1%
CC(C)[C@@H](C)CC[C@@H](C)[C@H]1CCC2C3=C[C@@H](O)[C@@]4(O)C[C@@H](O)CC[C@]4(C)C3CC[C@@]21C | - | - | MIC | H37Rv | 51 µg/mL
Cc1ccc(NC(=O)c2c(Cl)c(Cl)c(Cl)c(Cl)c2C(=O)O)cc1Cl | BACTEC | - | MIC bound | H37Rv | >12.5 µg/mL
Cc1cc(C)c2c(OCCCN3CCN(c4cccc(Cl)c4)CC3)nsc2n1 | BACTEC | - | EC50 | H37Rv | >12.5 µg/mL
CCCCCc1ccc(Oc2c(Cl)cccc2Cl)c(O)c1 | - | - | MIC100 | - | 25 µg/mL
Nc1c(S(=O)(=O)O)cc(Nc2cccc(S(=O)(=O)/C=C/S(=O)(=O)O)c2)c2c1C(=O)c1ccccc1C2=O | BACTEC | - | MIC bound | H37Rv | >12.5 µg/mL
C=CC(C)(O)CC/C=C(\C)CC/C=C(\C)CCCC(C)(O)CCCC(C)(O)CCCC(C)(O)CCCC(C)(O)CCCC(C)(O)CCC=C(C)C | - | - | MIC | H37Rv | >128 µg/mL
O=C1/C(=C/c2cccc(Br)c2)CSC/C1=C/c1cccc(Br)c1 | BACTEC | - | MIC bound | H37Rv | >12.5 µg/mL
CC(C)C(C)/C=C/[C@@H](C)[C@H]1CCC2C3=C[C@@H](O)[C@@]4(O)C[C@@H](O)CC[C@]4(C)C3CC[C@@]21C | - | - | MIC | H37Rv | 6 µg/mL
COc1ccccc1N1CCN(CCCCn2sc3nc(C)cc(C)c3c2=O)CC1 | BACTEC | 12.5 µg/mL | inhibition | H37Rv | 100%
CCCCCc1ccc(Oc2ccccc2[N+](=O)[O-])c(O)c1 | - | - | MIC100 | - | 12.5 µg/mL
COc1ccc(-n2[nH]c(C)c(N=Nc3ccc(-c4n[nH]c(=S)n4C)cc3)c2=O)cc1 | - | 6.25 µg/mL | inhibition | H37Rv | 1%
Clc1ccc2sc(-c3nnc(Nc4ccccc4Cl)s3)c(Cl)c2c1 | BACTEC | 6.25 µg/mL | inhibition | H37Rv | 0%
CC1(C)OC(=O)C(=Cc2ccc(-c3cc(C(F)(F)F)cc(C(F)(F)F)c3)o2)C(=O)O1 | BACTEC | - | MIC bound | H37Rv | >12.5 µg/mL
COc1ccc(-n2[nH]c(C)c(N=Nc3ccc(-c4n[nH]c(=S)o4)cc3)c2=O)cc1 | - | - | MIC | H37Rv | >6.25 µg/mL
CCOC(=O)c1nc2nc(Cl)c(Cl)nc2[nH]1 | BACTEC | 12.5 µg/mL | inhibition | H37Rv | 94%
N#Cc1nc2cc(Cl)ccc2nc1N | - | - | MIC | H37Rv | >12.5 µg/mL
NNC(=O)c1ccncc1 | - | - | MIC | H37Ra | 0.05 µg/mL
O=C1CSC(c2ccc([N+](=O)[O-])cc2)N1c1nc(-c2ccc3c(c2)CCCC3)cs1 | BACTEC | 12.5 µg/mL | inhibition | H37Rv | 0%
COC(=O)C1=C(C)N(c2ccc(Cl)cc2)C(C)=C(C(=O)OC)C1c1ccc(-c2ccc(F)c(Cl)c2)o1 | BACTEC / radiometric | 6.25 µg/mL | inhibition | H37Rv | 7%
C=C[C@]1(C)C[C@@H](OC(=O)CSC(C)(C)CNC[C@H](N)C(C)C)[C@]2(C)[C@H](C)CC[C@]3(CCC(O)[C@H]32)[C@@H](C)[C@@H]1O | resazurin | - | MIC100 | H37Rv | 6.25 µg/mL
O=C(O)C(=NNc1ccc(C(=O)N/N=C/c2ccc([N+](=O)[O-])o2)cc1)C(=O)O | - | 6.25 µg/mL | inhibition | H37Rv | 0%
O=C(O)c1cn(C2CC2)c2cc(N3CCN(C/C(=N/OCc4ccccc4)c4cccs4)CC3)c(F)cc2c1=O | - | 6.25 µg/mL | inhibition | H37Rv | 69%
C=CC(C)(O)CC/C=C(\C)CCCC(C)(O)CCCC(C)(O)CCCC(C)(O)CCCC(C)(O)CCCC(C)(O)CCCC(C)(O)CCC=C(C)C | - | - | MIC | H37Rv | 15 µg/mL
COC(=O)C1=C(C)N(c2ccccc2)C(C)=C(C(=O)OC)C1c1ccc(-c2ccc(F)c(Cl)c2)o1 | BACTEC / radiometric | 6.25 µg/mL | inhibition | H37Rv | 53%
CCN(CC)CCNc1ccc(C)c2sc3cc(Cl)ccc3c(=O)c12 | BACTEC | - | MIC | H37Rv | 3.13 µg/mL
O=C(NNC(=S)Nc1ccccc1[N+](=O)[O-])c1sc2ccc(Cl)cc2c1Cl | BACTEC | 6.25 µg/mL | inhibition | H37Rv | 0%
COC(=O)c1nc(-c2ccc3c(n2)C(=O)C(N)=C(OC)C3=O)c(N)c(-c2ccc(OC)c(OC)c2O)c1C | BACTEC | - | MIC | H37Rv | ≥12.8 µg/mL
CCCCCc1ccc(Oc2ccc([N+](=O)[O-])cc2C)c(O)c1 | - | - | MIC100 | - | 6.25 µg/mL
Cc1ccccc1NC(=S)NNC(=O)c1sc2ccc(Cl)cc2c1Cl | BACTEC | 6.25 µg/mL | inhibition | H37Rv | 0%
CCCCCc1ccc(Oc2ccccc2C)c(O)c1 | - | - | MIC100 | - | 3.125 µg/mL
NC[C@H]1O[C@H](O[C@H]2[C@H](O)[C@@H](O[C@H]3O[C@H](CO)[C@@H](O)[C@H](N)[C@H]3O)[C@H](N)C[C@@H]2N)[C@H](O)[C@@H](O)[C@@H]1O | - | - | MIC | H37Ra | 2.5 µg/mL
Cc1cc2c(cc1Cl)SC(NNc1ccc([N+](=O)[O-])cc1)=NS2(=O)=O | resazurin | 6.25 µg/mL | inhibition | H37Rv | 41%
CCCCCc1ccc(Oc2ccccc2O)c(O)c1 | - | - | MIC100 | - | 12.5 µg/mL
Cc1cc(C)c2c(=O)n(CC(=O)N3CCN(c4ccccc4)CC3)sc2n1 | BACTEC | 12.5 µg/mL | inhibition | H37Rv | 100%
N#Cc1nc2ccccc2nc1Cl | - | - | MIC | H37Rv | >12.5 µg/mL
CCC(/C=C/C(C)[C@H]1CCC2C3CC=C4C[C@@H](O[C@@H]5O[C@H](CO)[C@@H](O)[C@H](O)[C@H]5O)CC[C@]4(C)C3CC[C@@]21C)C(C)(C)C | resazurin | 6.25 µg/mL | inhibition | ATCC 27294 | 8%
O=C(O)c1cn(C2CC2)c2cc(N3CCN(C/C(=N/OCc4ccccc4)c4ccco4)CC3)c(F)cc2c1=O | - | - | MIC | H37Rv | >6.25 µg/mL
CCOC(=O)C1=C(C)N(c2cccc(Cl)c2)C(C)=C(C(=O)OCC)C1c1ccc(-c2ccc(F)c(Cl)c2)o1 | BACTEC / radiometric | 6.25 µg/mL | inhibition | H37Rv | 4%
Cc1ccc2oc(=O)c(/C=C(\O)c3ccccc3Cl)nc2c1 | - | - | MIC | H37Rv | 100 µg/mL
CCOC(=O)CCN1C(=O)C(=O)N(c2ccc(OC)cc2)C1=S | BACTEC | - | MIC bound | H37Rv | >12.5 µg/mL
CC[C@H]1OC(=O)[C@H](C)[C@@H](O[C@H]2C[C@@](C)(OC)[C@@H](O)[C@H](C)O2)[C@H](C)[C@@H](O[C@@H]2O[C@H](C)C[C@H](N(C)C)[C@H]2O)[C@](C)(O)C[C@@H](C)CN(C)[C@H](C)[C@@H](O)[C@]1(C)O | - | - | MIC50 | 30 isolates/HIV+ | >8 µg/mL
CC[C@]1(C)C[C@@H](OC(=O)CSC(C)(C)CNC(=O)[C@H](N)CC(C)C)[C@]2(C)[C@H](C)CC[C@]3(CC/C(=N\OC)[C@H]32)[C@@H](C)[C@@H]1O | low oxygen | - | MIC100 | H37Rv | 2.76 µg/mL
CCn1cc(C(=O)O)c(=O)c2cc(F)c(N3CCN(CC(=O)c4ccco4)CC3)cc21 | - | 6.25 µg/mL | inhibition | H37Rv | 33%
Cc1ccc(NCC2(/N=C/c3ccccc3)OC(CO)C(O)C2O)cc1 | BACTEC | - | MIC bound | H37Rv | >12.5 µg/mL
CCCCCc1ccc(Oc2ccccc2Br)c(O)c1 | - | - | MIC100 | - | 3.125 µg/mL
Cc1cc(C)c2c(=O)n(CC(=O)OCCN3CCN(c4ccccc4)CC3)sc2n1 | BACTEC | 12.5 µg/mL | inhibition | H37Rv | 0%
CC[C@H]1OC(=O)[C@H](C)[C@@H](O[C@H]2C[C@@](C)(OC)[C@@H](O)[C@H](C)O2)[C@H](C)[C@@H](O[C@@H]2O[C@H](C)C[C@H](N(C)C)[C@H]2O)[C@](C)(OC)C[C@@H](C)C(=O)[C@H](C)[C@@H](O)[C@]1(C)O | - | - | MIC | H37Ra | 1 µg/mL
COc1cc(C(c2c(O)c3ccccc3oc2=O)c2c(O)c3ccccc3oc2=O)cc(OC)c1OC | BACTEC | - | MIC bound | H37Rv | >12.5 µg/mL
CC(=O)NC[C@H]1CN(c2ccc(N3CCOCC3)c(F)c2)C(=O)O1 | - | - | MIC90 | 42 isolates | 0.5 µg/mL
CO[C@H]1/C=C/O[C@@]2(C)Oc3c(C)c(O)c4c(O)c(c5c(c4c3C2=O)NC2(CCN(CC(C)C)CC2)N=5)=NC(=O)/C(C)=C\C=C\[C@H](C)[C@H](O)[C@@H](C)[C@@H](O)[C@@H](C)[C@H](OC(C)=O)[C@@H]1C | - | - | MIC90 | 30 isolates/HIV+ | 1 µg/mL
Cc1cc(O)c(C=O)c2c1C(=O)Oc1c(CO)c(O)c3c(c1O2)C(O)OC3=O | BACTEC | 12.8 µg/mL | inhibition | H37Rv | 20%
CCOC(=O)/C(N=Nc1ccc(C(=O)N/N=C/c2ccc([N+](=O)[O-])o2)cc1)=C(\C)O | - | 12.5 µg/mL | inhibition | H37Rv | 95%
COC(=O)C1=C(C)N(c2ccc([N+](=O)[O-])cc2)C(C)=C(C(=O)OC)C1c1ccc(-c2ccc(F)c(Cl)c2)o1 | BACTEC / radiometric | 6.25 µg/mL | inhibition | H37Rv | 33%
COC(=O)c1ccc(OC(=O)/C=C/c2ccc(OC(C)=O)c(OC)c2)c(O)c1 | resazurin | 6.25 µg/mL | inhibition | ATCC 27294 | 30%
CCCCCc1ccc(Oc2c(C)cccc2C)c(O)c1 | - | - | MIC100 | - | 100 µg/mL
Cc1cc(C)c2c(=O)n(CN3CCN(c4ccccc4)CC3)sc2n1 | BACTEC | 12.5 µg/mL | inhibition | H37Rv | 0%
CC(=O)/C(N=Nc1ccc(C(=O)N/N=C/c2ccc([N+](=O)[O-])o2)cc1)=C(/O)c1ccccc1 | - | - | EC50 | H37Rv | <12.5 µg/mL
O=[N+]([O-])c1ccc(Nc2nnc(-c3sc4ccc(Cl)cc4c3Cl)s2)cc1 | BACTEC | 6.25 µg/mL | inhibition | H37Rv | 0%
NC(N)=S | - | - | MIC | H37Rv | >3290 µM
O=C1C=C(Nc2ccc(S(=O)(=O)Nc3ncccn3)cc2)c2ccccc2C1=O | resazurin | - | MIC bound | H37Rv | >6.25 µg/mL
CC[C@]1(C)C[C@@H](OC(=O)CSC(C)(C)CNC(=O)[C@H](N)C(C)C)[C@]2(C)[C@H](C)CC[C@]3(CCC(O)[C@H]32)[C@@H](C)[C@@H]1O | resazurin | - | MIC100 | H37Rv | 12.5 µg/mL
COc1ccccc1N1CCN(Cn2sc3nc(C)cc(C)c3c2=O)CC1 | BACTEC | - | EC50 | H37Rv | <12.5 µg/mL
CCCCCc1ccc(Oc2ccccc2F)c(O)c1 | - | - | MIC100 | - | 1.56 µg/mL
CC=CCOc1cc(NC(=S)c2ccoc2C)ccc1OC | resazurin | 6.25 µg/mL | inhibition | H37Rv | -1%
C=CC(C)(O)CC/C=C(\C)CC/C=C(\C)CCC(O)C(C)(O)CCCC(C)(O)CCCC(C)(O)CCCC(C)(O)CCCC(C)(O)CCCC(C)(O)CCC=C(C)C | - | - | MIC | H37Rv | 44 µg/mL
COc1cc(/C=C/c2cc(OC)c(OC)c(OC)c2)oc(=O)c1 | BACTEC | 12.5 µg/mL | inhibition | H37Rv | -8%
COc1cc(C2Cc3c(OC)cc(C(=O)O)cc3C2COC(C)=O)ccc1O | resazurin | 6.25 µg/mL | inhibition | ATCC 27294 | 35%
CC(=O)O[C@H]1C(=O)[C@]2(C)[C@@H](OC(C)=O)C[C@H]3OC[C@@]3(OC(C)=O)[C@H]2[C@H](OC(=O)c2ccccc2)[C@]2(O)C[C@H](OC(=O)[C@H](OC(C)=O)[C@@H](NC(=O)c3ccccc3)c3ccccc3)C(C)=C1C2(C)C | - | - | MIC | INH-r | 1.6 µg/mL
Cc1ccc(Cl)c(NC(=S)NNC(=O)c2sc3ccc(Cl)cc3c2Cl)c1 | BACTEC | 6.25 µg/mL | inhibition | H37Rv | 0%
Cl.Cl.Cl.FC(F)(F)c1ccc2c(c1)N(CCCN1CCN(CCN3CCOCC3)CC1)c1ccccc1S2 | BACTEC | 12.5 µg/mL | inhibition | H37Rv | 98%
O=C(NNC(=S)Nc1ccc([N+](=O)[O-])cc1)c1sc2ccc(Cl)cc2c1Cl | BACTEC | 6.25 µg/mL | inhibition | H37Rv | 0%
C=C1C(=O)C2=CC1CCC(=O)C1(C)CCC(OC(C)=O)C(C)(C)C1CC2O | BACTEC | - | MIC bound | H37Rv | >12.5 µg/mL
Cc1cc(C)c2c(OCCCCN3CCN(c4ccccc4)CC3)nsc2n1 | BACTEC | - | EC50 | H37Rv | >12.5 µg/mL

5 of the rows above, restated:

structure | read by | dose | read-out | strain | value
C=C1C(=O)C2=CC1CCC(=O)C1(C)CCC(OC(C)=O)C(C)(C)C1CC2O | BACTEC | - | MIC bound | H37Rv | >12.5 µg/mL
CCCCCc1ccc(Oc2ccc([N+](=O)[O-])cc2C)c(O)c1 | - | - | MIC100 | - | 6.25 µg/mL
O=C(NNC(=S)Nc1ccccc1[N+](=O)[O-])c1sc2ccc(Cl)cc2c1Cl | BACTEC | 6.25 µg/mL | inhibition | H37Rv | 0%
C=C[C@]1(C)C[C@@H](OC(=O)CSC(C)(C)CNC[C@H](N)C(C)C)[C@]2(C)[C@H](C)CC[C@]3(CCC(O)[C@H]32)[C@@H](C)[C@@H]1O | resazurin | - | MIC100 | H37Rv | 6.25 µg/mL
C=CC(C)(O)CC/C=C(\C)CCCC(C)(O)CCCC(C)(O)CCCC(C)(O)CCCC(C)(O)CCCC(C)(O)CCCC(C)(O)CCC=C(C)C | - | - | MIC | H37Rv | 15 µg/mL